Source: US7358249B2, “Heterocyclic compounds having inhibitory activity against HIV integrase” (Shionogi & Co., Ltd., priority 2002, dated 2008)

Biological target: HIV integrase (Human immunodeficiency virus type 1 group M subtype B, UniProt P04585)
Experiment: integrase inhibition assay (microtiter plate, substrate DNA / target DNA)
Assay type: biochemical
Conditions: integrase 30 pmol, incubated at 30° C. for 1 hour, OD at 405 nm; concentration at percent inhibition 50%
Experimental: The inhibitory activities against integrase of the presnt compounds were determined by the assay described below.
(1) Preparation of DNA Solutions
Substrate DNA and target DNA synthesized by Amersham Pharmacia Biotech, which sequences were indicated below, were dissolved in KTE buffer (composition: 100 mM KCl, 1 mM EDTA, 10 mM Tris-HCl (pH 7.6)) at a concentration of 2 pmol/μl and 5 pmol/μl, respectively. The DNA solutions were heated and then slowly cooled so that they were annealed with each complement.
(Sequence of Substrate DNA)
(2) Calculations of the percent inhibitions (IC50 values of test compounds)
Streptavidin, obtained from Vector Laboratories, was dissolved in 0.1 M carbonate buffer (composition: 90 mM Na2CO3, 10 mM NaHCO3) at a concentration of 40 μg/ml. After coating each well of microtiter plates (obtained from NUNC) with 50 μl of the above solution at 4° C. over night, each well was washed twice with PBS (composition: […], 0.27 mM KCl, 0.43 mM Na2HPO4, 0.14 mM KH2PO4) and blocked with 300 μl of 1% skim milk in PBS for 30 min. Additionally, each well was washed twice with PBS and added with 50 μl of the substrate DNA solution (2 pmol/μl). […]
The microtiter plates were incubated at 30° C. for 1 hour. […] The optical density (OD) at 405 nm of each well was measured and the percent inhibition was determined by the following expression. […]

SMILES	MIA, IC50
O=C(O)c1ccc2cc(Cc3ccc(F)cc3)cnc2c1O	0.12 µg/mL
COC(=O)c1ccc2cc(Cc3ccc(F)cc3)cnc2c1O	0.11 µg/mL
